Data: the supplement of paper PMC9931576
Human monoclonal antibodies against the spike receptor-binding domain (heavy:light variable regions). IC50 against pseudoviruses bearing the spike of naturally observed variants; lower = stronger; >10 µg/ml means not reached at the top dose. No active / inactive call. The stated detection limit is 0.0005 µg/ml; values near or below 0.001 µg/ml lie at the floor of the assay.

Columns and labels:
Test in all cases: pseudovirus neutralization IC50; higher = weaker neutralization
[1] = target: SARS-CoV-2 Omicron BA.1 spike pseudovirus
Description: (§1)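 Single-round VSV luciferase pseudovirus mixed with antibody dilutions for 1 h and put on Huh-7 cells for about a day; IC50 from the dose curve.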

[2] = target: SARS-CoV-2 Omicron BA.2 spike pseudovirus
Description: as §1

[3] = target: SARS-CoV-2 Omicron BA.2.75 spike pseudovirus
Description: as §1

[4] = target: SARS-CoV-2 Omicron BA.5 spike pseudovirus
Description: as §1

[5] = target: SARS-CoV-2 Omicron BQ.1.1 spike pseudovirus
Description: as §1

[6] = target: SARS-CoV-2 Omicron XBB spike pseudovirus
Description: as §1

[7] = target: SARS-CoV-2 early D614G spike pseudovirus
Description: as §1

Binder	pseudovirus neutralization IC50 [1] [µg/mL]	pseudovirus neutralization IC50 [2] [µg/mL]	pseudovirus neutralization IC50 [3] [µg/mL]	pseudovirus neutralization IC50 [4] [µg/mL]	pseudovirus neutralization IC50 [5] [µg/mL]	pseudovirus neutralization IC50 [6] [µg/mL]	pseudovirus neutralization IC50 [7] [µg/mL]
BD56-1640 (protein) chain 1: QVQLVESGGGVVRPGRSLRLSCAASGFTFTNYGMHWVRQAPGKGLEWVAVIWYDGSNKDYADSVKGRFTISRDNSKNTLYLQMNSLRAEDTAMYYCAKPIYSYASGSYPDYWGQGTLVTVSS chain 2: DIQMTQSPSSLSASVGDRVTITCQASQDIGNYLNWYQQRPGKAPKLLIYDASNLETGVPSRFSGSGSGTDFTFTISSLQPEDIATYYCQQYDNQYDNLSWTFGPGTKVEIK	> 10	> 10	> 10	> 10	> 10	> 10	> 10
BD56-1655 (protein) chain 1: EVQLVESGGGLVQPGRSLRLSCAASGFTFNDYAMHWVRQAPGKGLEWVSGISWNSGSIGYADSVKGRFTISRDDAKNSLYLQMNSLRAEDTALYYCAKCLTVTTFLFGAFDIWGQGTMVTVSS chain 2: EIVLTQSPATLSLSPGERANLSCRSSQSVSNSLAWYQQKPGQAPRLLIYDASNRATGIPARFSGSGSGTDFTLTISSLEPEDFAVYYCQQRSNWPPGLTFGGGTKVEIK	> 10	> 10	> 10	> 10	> 10	> 10	> 10
BD56-1647 (protein) chain 1: QVQLVQSGAEVKKPGASVKLSCKASGYSFTNYYIHWVRQAPGQGLEWMGIINPGGGSTTYAQRFRGRVIMTGDTSTSTVYMELSSLRSDDTAVYYCARSAHGIPSARAWFDPWGQGALVTVSS chain 2: DIQMTQSPSTLSASVGDRVTITCRASQSISNWLAWYQHKPGKAPKVLIYEASSLESGVPPRFSGSGSGTEFTLTISSLQPDDFATYYCQQYSAYLYTFGQGTKLEIK	> 10	> 10	> 10	> 10	> 10	> 10	> 10
BD56-1643 (protein) chain 1: EVQLVESGGGLVQPGRSLRLSCAASGFTFGDHAMHWVRQAPGKGLEWVSGISWNSGGIDYADSVKGRFTISRDNSKSSLYLQMNSLRAEDTAFYYCARDSFAEQQLLYGLDVWGQGTTVTVSS chain 2: DIQMTQSPSSLSASVGDRVTITCRASQTISTYLNWYQQKPGKAPKLLIYAASNLQSGVPSRFSGSGSGTDFTLTISSLQPEDFATYYCQQSYSTPGTFGGGTKVEIK	> 10	> 10	> 10	> 10	> 10	> 10	3.92
BD56-1674 (protein) chain 1: QVQLVESGGGVVQPGRSQRLSCAASGFSFSTYAMYWVRQAPGKGLEWVAFISYDGSDKNYADSVKGRFTISRDNTKNTLYLQMNSLRGEDTAVYYCAREFTNIWYGDFWGQGSLVTVSS chain 2: DIQMTQSPSTLSASVGDRVTITCRASQSISTWLAWYQQKPGKAPKLLIYKASSLQSGVPSRFSGSGSGTDFTLTISSLQPDDFASYYCQQYHGAVSWTFGQGTKVEIK	> 10	> 10	> 10	> 10	> 10	> 10	> 10
BD56-1633 (protein) chain 1: QVQLVESGGGVVQPGRSLRLSCTPSGFTFRTYGFHWVRQAPGKGLEWVAVISYDGDKKYYAESVKGRFTISRDKSKNTLNLQMNSLRTEDTAIYYCAKAHGPYCGGTNCYSQPADYWGRGTLVTVSS chain 2: SYVLTQPPSVSVAPGKTARITCGGDNIGGDSVHWYQQRPGQAPVLVIYFNTDRPSGIPERFSGSISGNTATLTISRVEAGDEADYYCQVWDSSRDQGVFGTGTKVTVL	> 10	> 10	> 10	> 10	> 10	> 10	> 10
BD56-1642 (protein) chain 1: QVQLVESGGGVVQPGRSLRLSCAASGFTFSSYVMYWVRQAPGKGLEWVALISYDGRNKYHADSVKGRFTISRDNSKNTQYLQMNSLRADDTAVYYCAREFDVDSGMVNNDAYGVDVWGQGTTVTVSS chain 2: DIQMTQSPSSLSASVGDRVTITCRASQTISIYLNWYQQKPGKAPKLLIYTAFSLQRGVPSRFSGSGSGTEFSLTISSLHPEDFATYYCQQSYSIPPLTFGGGTKVEIK	> 10	> 10	> 10	> 10	> 10	> 10	> 10
BD56-1672 (protein) chain 1: QITLKESGPALVKPTQTLTLTCTFSGFSLSTSGVAVGWVRQPPGKALEWLALIYWDDDKRYRPSLKSRLTITKDTSKNQVVLRMTYMDPVDTATYFCAHGRDLPYAEYFQDWGQGTLVTVSP chain 2: SYELTQPPSVSVSPGQTARITCSGDAFPNLYAYWYQQKPGQAPVVVIYKDTERPSGIPERFSGSSSGTTVTLTISGVQAEDEADYYCQSGDSSGRVFGGGTKLTVL	> 10	8.18	8.75	> 10	> 10	> 10	4.95
BD56-1635 (protein) chain 1: EVQLVESGGGLVKPGGSLRLSCAASGFTFSTYSMNWVRQAPGKGLEWVSSISRGSVDIYYEDSVKGRFTISRDNAKNSLFLQMNSLRAEDTAVYYCARKLRGYSYGYDVWGQGTQVTVSS chain 2: DIQMTQSPSSLSASVGDRVSITCQASQDINNYLNWYQQKPGKAPKLLIYDAFNLQTGVPSRFSGSGSGTDFTFTISSLQPEDIATYYCQVYDTFGQGTKLEIK	> 10	> 10	> 10	> 10	> 10	> 10	> 10
BD56-1658 (protein) chain 1: QVQLVQSGAEVKKPGSSVKVSCKASGGTFSSYPITWVRQAPGQGLEWMGQIIPILGIANYAQRFQGRVTITADKSTSTANMELSSLRSEDTAIYYCARARGYSSSGSAYYFDFWGQGTLVTVSS chain 2: QSVLTQPPSVSGAPGQRVTISCTGSSSNIGAGYDVHWYQQLPGTAPKLLIYANNNRPSGVPDRFSGSKSGTSASLAITGLQAEDESDYYCQSYDSSLSGSVFGGGTKLTVL	0.0507	0.0344	0.0221	1.53	3.75	2.15	0.373
COV2-2499 (protein) chain 1: QLQLQESGPGLVKPSETLSLTCTVSGGSVSSRSYYWGWIRQPPGKGLEWIGSIYYSGSTYYNPSLKSRVTISVDTSKNQFSLKLSSVTAADTAVYYCARHTVDCGGDCFPNDAFDIWGQGTMVTVSS chain 2: SSELTQDPAVSVALGQTVRITCQGDSLRSYYASWYQQKPGQAPLLVIYGKNNRPSGIPDRFSGSSSGNTPSLTITGAQAEDEADYYCNFRDSSGHHPVFGEGTKLTVL	> 10	> 10	> 10	> 10	> 10	> 10	0.0024
BD56-1673 (protein) chain 1: QVQLVESGGGGVVQPGRSQRLSCAASGFTFSSHAMHWVRQAPGKGLEWVAIISYDGSSKHYADSVKGRFTISRDNSKYTLYLHMNSLRPEDTAVYYCVRDAGYCSASRCQTQDYFDYWGQGTQVTVSS chain 2: SYVLTQPPSVSVAPGKTARITCGGSEIGSKGVHWYQQKPGQAPVLVIYYDNDRPSGIPERFSGSNSGNTATLTISRVEGGDEADYYCQVWDSSSDHHWVFGRGTKLTVL	5.77	8.26	5.15	8.44	6.41	5.67	6.66
